Measured values published in the NIST ThermoML archive (doi:10.1021/je8003707).

Assay: xn = mol fraction of the nth substance listed
Settings: 101 kPa, Liquid; for viscosity: Capillary tube (Ostwald / Ubbelohde) method; for mass density: Pycnometric method

CCCCOP(=O)(OCCCC)OCCCC [tributyl phosphate] + C1CCCCC1
Settings | mass density, 288.15 K [kg/m3] | mass density, 293.15 K [kg/m3] | mass density, 298.15 K [kg/m3] | mass density, 303.15 K [kg/m3] | mass density, 308.15 K [kg/m3] | viscosity, 288.15 K [mPa·s] | viscosity, 293.15 K [mPa·s] | viscosity, 298.15 K [mPa·s] | viscosity, 303.15 K [mPa·s] | viscosity, 308.15 K [mPa·s]
x1 = 0.1002 | 823.6 | 819.1 | 814.4 | 809.8 | 805.2 | 1.286 | 1.172 | 1.072 | 0.989 | 0.904
x1 = 0.2037 | 857.3 | 852.7 | 848.2 | 843.6 | 839.1 | 1.562 | 1.424 | 1.298 | 1.183 | 1.085
x1 = 0.3001 | 882.3 | 877.9 | 873.4 | 868.9 | 864.6 | 1.851 | 1.676 | 1.52 | 1.389 | 1.275
x1 = 0.4106 | 905.7 | 901.2 | 896.9 | 892.5 | 888 | 2.224 | 1.998 | 1.808 | 1.641 | 1.496
x1 = 0.4982 | 922 | 917.6 | 913.3 | 908.7 | 904.5 | 2.535 | 2.266 | 2.034 | 1.84 | 1.666
x1 = 0.5928 | 936.5 | 932.2 | 927.8 | 923.4 | 919.1 | 2.857 | 2.542 | 2.274 | 2.044 | 1.848
x1 = 0.7056 | 951.1 | 946.7 | 942.4 | 938.1 | 934 | 3.253 | 2.873 | 2.566 | 2.302 | 2.069
x1 = 0.7898 | 960.8 | 956.3 | 952 | 947.7 | 943.5 | 3.555 | 3.14 | 2.795 | 2.496 | 2.24
x1 = 0.9063 | 972.8 | 968.6 | 964.3 | 959.9 | 955.8 | 3.962 | 3.5 | 3.098 | 2.755 | 2.462
x1 = 1 | – | – | – | – | – | 4.304 | 3.77 | 3.341 | 2.969 | 2.651

CCCCOP(=O)(OCCCC)OCCCC [tributyl phosphate] + CCCCCCC
Settings | mass density, 288.15 K [kg/m3] | mass density, 293.15 K [kg/m3] | mass density, 298.15 K [kg/m3] | mass density, 303.15 K [kg/m3] | mass density, 308.15 K [kg/m3] | viscosity, 288.15 K [mPa·s] | viscosity, 293.15 K [mPa·s] | viscosity, 298.15 K [mPa·s] | viscosity, 303.15 K [mPa·s] | viscosity, 308.15 K [mPa·s]
x1 = 0.1028 | 739.5 | 735.2 | 731.2 | 726.8 | 722.5 | 0.584 | 0.549 | 0.52 | 0.489 | 0.461
x1 = 0.1954 | 779.5 | 775 | 770.7 | 766.5 | 761.9 | 0.753 | 0.704 | 0.659 | 0.619 | 0.582
x1 = 0.2961 | 817 | 812.5 | 808.2 | 803.8 | 799.5 | 0.984 | 0.913 | 0.847 | 0.789 | 0.737
x1 = 0.3975 | 849.9 | 845.4 | 840.9 | 836.7 | 832.2 | 1.267 | 1.164 | 1.072 | 0.993 | 0.922
x1 = 0.4951 | 877.6 | 873.2 | 868.7 | 864.3 | 860.1 | 1.59 | 1.444 | 1.321 | 1.214 | 1.121
x1 = 0.6079 | 905.7 | 901.4 | 897 | 892.7 | 888.5 | 2.024 | 1.829 | 1.658 | 1.512 | 1.377
x1 = 0.7045 | 927.2 | 922.9 | 918.5 | 914.2 | 910 | 2.466 | 2.211 | 1.999 | 1.808 | 1.634
x1 = 0.796 | 945.5 | 941.1 | 936.7 | 932.5 | 928.2 | 2.953 | 2.631 | 2.355 | 2.119 | 1.911
x1 = 0.8995 | 964.3 | 959.9 | 955.7 | 951.4 | 947.3 | 3.618 | 3.189 | 2.833 | 2.535 | 2.269
x1 = 1 | 981 | – | 972.5 | – | – | – | – | – | – | –
